Pooled drug test results. Numbers come from NIAID ChemDB, via PubChem.

Common to all: tests in culture; species: Epstein-Barr virus; read by: hybridisation; read-out: EC50

ECn is the concentration giving n% inhibition of infection, replication or growth. Rows are shuffled and stem from different studies.

Nc1nc2c(ncn2[C@@H]2C[C@H](O)[C@@H](O)[C@H]2O)c(=O)[nH]1 ; cells: DAUDI ; result: 0.82 µg/mL
COC(=O)C(C)NP(=O)(OC[C@@H]1C/C1=C/n1cc(C)c(=O)[nH]c1=O)Oc1ccccc1 ; cells: H-1 ; result: >20 µM
Nc1nc(OCc2ccccc2)c2ncn(/C=C3/C[C@@H]3CO)c2n1 ; cells: Akata ; result: 2.6 µM
Nc1nc2c(ncn2/C=C2\CC2[C@H](O)CO)c(=O)[nH]1 ; cells: Akata ; result: >20 µM
COc1nc(N)nc2c1ncn2/C=C1/C[C@@H]1CO ; cells: Akata ; result: 0.3 µM
CCOC(=O)CC1OP(=O)(OC[C@H]2O[C@@H](n3cc(/C=C/Br)c(=O)[nH]c3=O)C[C@@H]2O)Oc2cccc(Cl)c21 ; result: 3.98 µg/mL
Nc1ncnc2c1ncn2/C=C1/CC1(CO)CO ; cells: H-1 ; result: 7 µM
Cc1cn(C=C2CC2(F)CO)c(=O)[nH]c1=O ; cells: DAUDI ; result: 221 µM
CCCCCCCCCCCCOCCCOP1(=O)CO[C@@H](Cn2ccc(N)nc2=O)CO1 ; cells: DAUDI ; result: >0.8 µM
CC(C)COc1nc(N)nc2c1ncn2/C=C1/C[C@@H]1CO ; cells: Akata ; result: 3.4 µM
O[C@]12CO[C@@H](c3ccc4c(c3)OCO4)[C@@]1(O)CO[C@@H]2c1ccc2c(c1)OCO2 ; cells: Akata ; result: 67 µM
OC[C@H]1O[C@@H](n2c(Br)nc3cc(Cl)c(Cl)cc32)[C@H](O)[C@@H]1O ; cells: DAUDI ; result: >80 µM
COC(=O)C(C)NP(=O)(OC[C@@H]1C/C1=C\n1cc(N)c(=O)[nH]c1=O)Oc1ccccc1 ; cells: H-1 ; result: 12 µM
Nc1ncnc2ncn(/C=C3/C(F)C3(CO)CO)c12 ; cells: Akata ; result: 97.3 µM
Nc1ccn(C[C@H]2COP(=O)(O)CO2)c(=O)n1 ; cells: DAUDI ; result: >166 µM
Nc1cn(C=C2C[C@H]2CO)c(=O)[nH]c1=O ; cells: H-1 ; result: >50 µM
CC(C)Nc1nc2cc(Cl)c(Cl)cc2n1[C@H]1O[C@@H](CO)[C@H](O)[C@@H]1O ; cells: DAUDI ; result: 5.1 µM
CCCCCCCC/C=C\CCCCCCCCOCCOP(=O)(O)CO[C@H](CO)Cn1ccc(N)nc1=O ; cells: DAUDI ; result: 0.03 µM
O=c1[nH]c(=O)n([C@H]2C[C@H](O)[C@@H](COP3(=O)OCc4cccc(-c5ccccc5)c4O3)O2)cc1/C=C/Br ; result: 33.6 µg/mL
C=CCOc1nc(N)nc2c1ncn2/C=C1/C[C@@H]1CO ; cells: Akata ; result: 1 µM
Cn1cc(C(=O)NCc2ccc(Cl)cc2)c(=O)c2cc(CN3CCOCC3)ccc21 ; cells: DAUDI ; result: 2.6 µM